Compound potency records, mixed from different reports. Data source: NIAID ChemDB in PubChem.

Shared fields: tests in culture

Zones are inhibition diameters on agar. Two numbers with a dash give a range or band. An empty or dashed field is not shown. Inhibition is in % at the dose shown (toxicity tests: loss of growth or viability). A number after MIC or MFC names an inhibition level or a share of isolates. ECn: concentration that inhibits the pathogen or its effect by n%. Rows are shuffled and stem from different studies.

smiles	method	dose	strain	endpoint	conditions	organism	value
c1ccc(C(c2ccccc2)n2nnc3ccccc32)cc1	agar	-	-	MIC90	-	Candida dubliniensis	>256 µg/mL
Nc1[nH]c(=O)ncc1F	broth dilution	-	40 isolates	MIC	pH 5	Candida glabrata	0.125 µg/mL
O=C1C(Oc2cccc(N3CC(C(=O)N/N=C/c4ccc(Br)cc4)CC3=O)c2)=C(Oc2cccc(N3CC(C(=O)N/N=C/c4ccc(Br)cc4)CC3=O)c2)C(=O)c2ccccc21	-	-	VCM Y-70	MIC	-	Candida tenuis	250 µg/mL
O=c1c2cc(O)ccc2oc2cccc(O)c12	broth dilution	-	-	MIC	-	Candida spp.	>64 µg/mL
Cc1ccc(C)n1NC(=O)C1CC(=O)N(c2cccc(OC3=C(Oc4cccc(N5CC(C(=O)Nn6c(C)ccc6C)CC5=O)c4)C(=O)c4ccccc4C3=O)c2)C1	-	-	VCM Y-70	MIC	-	Candida tenuis	15.6 µg/mL
O=C1C(=O)c2ccccc2C2=C1CC(CI)O2	broth dilution	-	Clinical isolate	MIC	-	Candida parapsilosis	16 µg/mL
CC[C@@H]([C@H](C)O)n1ncn(-c2ccc(N3CCN(c4ccc(OC[C@@H]5CO[C@@](Cn6cncn6)(c6ccc(F)cc6F)C5)cc4)CC3)cc2)c1=O	-	-	-	MIC50	-	Candida lusitaniae	0.008–1 µg/mL
Cc1nc2c(s1)C(=O)C(Nc1ccc(Br)cc1)=C(Cl)C2=O	broth dilution	-	KCCM 50662	MIC	-	Candida utilis	25 µg/mL
O=C1S/C(=C\c2ccoc2)C(=O)N1CC(O)(Cn1nccn1)c1ccc(F)cc1F	-	-	Fluconazole-resistant 103	MIC80	-	Candida colliculosa	74 µg/mL
CCC(C)n1ncn(-c2ccc(N3CCN(c4ccc(OC[C@H]5CO[C@](Cn6cncn6)(c6ccc(Cl)cc6Cl)O5)cc4)CC3)cc2)c1=O	broth dilution	-	40 isolates	EC90	pH 5	Candida glabrata	>16 µg/mL
Cc1nc2c(s1)C(=O)C(Nc1ccc(Cl)cc1)=C(Cl)C2=O	broth dilution	-	KCCM 50662	MIC	-	Candida utilis	12.5 µg/mL
CC(C)(O)c1cn(-c2ccc([N+](=O)[O-])cc2)nn1	broth dilution	2048 µg/mL	URM 109	inhibition	-	Candida krusei	0%
Clc1ccc(C(c2ccccc2)n2cncn2)cc1	agar	-	-	MIC90	-	Candida dubliniensis	4 µg/mL
OC(CCn1ccnc1)c1ccc(-c2ccccc2)cc1	broth dilution	-	RTCC 1377	MIC	-	Candida guilliermondii	>64 µg/mL
O=c1[nH]c(-c2cc3ccccc3oc2=O)nc2c1C(c1ccc(O)cc1)c1ccc3ccccc3c1O2	agar diffusion / agar	100 µg/mL	-	zone	-	Candida rugosa	11 mm
c1ccc(C(c2ccccc2)n2cncn2)cc1	broth dilution	-	-	MFC	-	Candida dubliniensis	256 µg/mL
C[C@H]1[C@H](O)[C@@H](C)/C=C/C=C/C=C/C=C/C=C/C=C/C=C/[C@H](O[C@@H]2O[C@H](C)[C@@H](O)[C@H](N)[C@@H]2O)C[C@@H]2O[C@](O)(C[C@@H](O)C[C@@H](O)CC[C@H](O)[C@@H](O)C[C@@H](O)CC(=O)O[C@H]1C)C[C@H](O)[C@H]2C(=O)O	broth dilution	-	34134	MIC	-	Candida guilliermondii	0.008 µg/mL
CC(C)C[C@H](N)C(=O)O	broth dilution	-	T-98 QC2000	MFC100	-	Candida dubliniensis	>72000 µg/mL
CC(=O)OC[C@H]1O[C@@H](O[C@@H]2[C@@H](N=[N+]=[N-])[C@H](O)[C@H](O)[C@H]3OC(C)(C)O[C@H]32)[C@H](OC(C)=O)[C@@H](OC(C)=O)[C@H]1OC(C)=O	broth dilution / turbidity	62.5 µg/mL	C 131	inhibition	-	Candida tropicalis	17.39%
O=C(c1ccccc1)C(c1ccccc1)n1cncn1	agar	-	-	MIC90	-	Candida dubliniensis	4 µg/mL
O=C(CCn1ccnc1)c1ccc2ccccc2c1	broth dilution	-	RTCC 1074	MIC	-	Candida kefyr	32 µg/mL
COC(=O)[C@H]1[C@@H]2C[C@@H](O[C@@H]3O[C@H](C)[C@@H](O)[C@H](N)[C@@H]3O)/C=C/C=C/C=C/C=C/C=C/C=C/C=C/[C@H](C)[C@@H](O)[C@H](C)[C@H](C)OC(=O)C[C@H](O)C[C@H](O)[C@@H](O)CC[C@H](O)C[C@H](O)C[C@](O)(C[C@@H]1O)O2	broth dilution	-	40 isolates	MIC	pH 4	Candida glabrata	4 µg/mL
C[C@H]1[C@H](O)[C@@H](C)/C=C/C=C/C=C/C=C/C=C/C=C/C=C/[C@H](O[C@@H]2O[C@H](C)[C@@H](O)[C@H](N)[C@@H]2O)C[C@@H]2O[C@](O)(C[C@@H](O)C[C@@H](O)CC[C@H](O)[C@@H](O)C[C@@H](O)CC(=O)O[C@H]1C)C[C@H](O)[C@H]2C(=O)O	broth dilution	-	FMR 9474	MIC	-	Candida lusitaniae	0.25 µg/mL
O=c1[nH]c(-c2cc3ccccc3oc2=O)nc2c1C(c1ccc(Cl)cc1)c1ccc3ccccc3c1O2	agar diffusion / agar	100 µg/mL	-	zone	-	Candida rugosa	9 mm
COc1c(O)ccc2c(=O)c3c(O)cc4c(c3oc12)C(C)(C)C(C)O4	broth dilution	-	-	MIC100	-	Candida spp.	>64 µg/mL
CC[C@@H]([C@H](C)O)n1ncn(-c2ccc(N3CCN(c4ccc(OC[C@@H]5CO[C@@](Cn6cncn6)(c6ccc(F)cc6F)C5)cc4)CC3)cc2)c1=O	broth dilution	-	-	MIC50	-	Candida glabrata	0.5 µg/mL
O=C1C(Cl)=C(Oc2cccc(N3CC(c4nnco4)CC3=O)c2)C(=O)c2ccccc21	-	-	VCM Y-70	MIC	-	Candida tenuis	31.2 µg/mL
C[C@H]1[C@H](O)[C@@H](C)/C=C/C=C/C=C/C=C/C=C/C=C/C=C/[C@H](O[C@@H]2O[C@H](C)[C@@H](O)[C@H](N)[C@@H]2O)C[C@@H]2O[C@](O)(C[C@@H](O)C[C@@H](O)CC[C@H](O)[C@@H](O)C[C@@H](O)CC(=O)O[C@H]1C)C[C@H](O)[C@H]2C(=O)O	broth dilution	-	ATCC 96139	MIC	-	Candida orthopsilosis	0.125 µg/mL
CCCCCOc1ccc(-c2cc(-c3ccc(C(=O)N[C@H]4C[C@@H](O)[C@@H](O)NC(=O)[C@@H]5[C@@H](O)[C@@H](C)CN5C(=O)[C@H]([C@H](O)CC(N)=O)NC(=O)[C@H]([C@H](O)[C@@H](O)c5ccc(O)c(OS(=O)(=O)O)c5)NC(=O)[C@@H]5C[C@@H](O)CN5C(=O)[C@H]([C@@H](C)O)NC4=O)cc3)no2)cc1	-	-	-	MIC50	-	Candida dubliniensis	0.015–0.12 µg/mL
C=CCc1ccc(OC)c(OC)c1	turbidity	-	2442	MIC90	-	Candida tropicalis	340 µg/mL
COc1cc(C2Oc3ccc4c(=O)c5c(O)cc(O)cc5oc4c3OC2CO)cc(OC)c1O	broth dilution	-	-	MIC	-	Candida spp.	>64 µg/mL
COC(=O)C1CC(=O)N(c2cccc(OC3=C(Oc4cccc(N5CC(C(=O)OC)CC5=O)c4)C(=O)c4ccccc4C3=O)c2)C1	-	-	VCM Y-70	MIC	-	Candida tenuis	31.2 µg/mL
Cc1ccc(/C=N/Nc2ccnc3cc(Cl)ccc23)cc1	-	-	-	MFC	-	Candida lipolytica	40 µg/mL
Nc1ncccc1-c1cc(Cc2ccc(COc3ccccn3)cc2)no1	broth dilution	-	8661	MIC	-	Candida glabrata	0.06 µg/mL
C[C@H]1[C@H](O)[C@@H](C)/C=C/C=C/C=C/C=C/C=C/C=C/C=C/[C@H](O[C@@H]2O[C@H](C)[C@@H](O)[C@H](N)[C@@H]2O)C[C@@H]2O[C@](O)(C[C@@H](O)C[C@@H](O)CC[C@H](O)[C@@H](O)C[C@@H](O)CC(=O)O[C@H]1C)C[C@H](O)[C@H]2C(=O)O	agar diffusion / agar	100 µg/mL	-	zone	-	Candida rugosa	22 mm
OC(CCn1ccnc1)c1ccc(Br)cc1	broth dilution	-	RTCC1248	MIC	-	Candida guilliermondii	>64 µg/mL
CCOC(=O)c1c(N)oc2c1cc(O)c1sc(C)nc12	broth dilution	-	KCCM 50662	MIC	-	Candida utilis	50 µg/mL
CC(C)CC(=O)C(=O)O	broth dilution	-	EO 323	MFC100	-	Candida dubliniensis	>72000 µg/mL
CC(C)(O)c1cn(-c2cccc3ccccc23)nn1	broth dilution	2048 µg/mL	URM 4124	inhibition	-	Candida albicans	0%
Clc1ccc(COC(Cn2ccnc2)c2ccc(Cl)cc2Cl)c(Cl)c1	broth dilution	-	40 isolates	MIC	pH 5	Candida glabrata	0.5 µg/mL
O=c1[nH]c(-c2cc3ccccc3oc2=O)nc2c1C(c1ccccc1Cl)c1ccc3ccccc3c1O2	agar diffusion / agar	150 µg/mL	-	zone	-	Candida rugosa	15 mm

The first 5 rows once more:

smiles | method | dose | strain | endpoint | conditions | organism | value
c1ccc(C(c2ccccc2)n2nnc3ccccc32)cc1 | agar | - | - | MIC90 | - | Candida dubliniensis | >256 µg/mL
Nc1[nH]c(=O)ncc1F | broth dilution | - | 40 isolates | MIC | pH 5 | Candida glabrata | 0.125 µg/mL
O=C1C(Oc2cccc(N3CC(C(=O)N/N=C/c4ccc(Br)cc4)CC3=O)c2)=C(Oc2cccc(N3CC(C(=O)N/N=C/c4ccc(Br)cc4)CC3=O)c2)C(=O)c2ccccc21 | - | - | VCM Y-70 | MIC | - | Candida tenuis | 250 µg/mL
O=c1c2cc(O)ccc2oc2cccc(O)c12 | broth dilution | - | - | MIC | - | Candida spp. | >64 µg/mL
Cc1ccc(C)n1NC(=O)C1CC(=O)N(c2cccc(OC3=C(Oc4cccc(N5CC(C(=O)Nn6c(C)ccc6C)CC5=O)c4)C(=O)c4ccccc4C3=O)c2)C1 | - | - | VCM Y-70 | MIC | - | Candida tenuis | 15.6 µg/mL